The values below come from US20250152599A1 (priority 2020, published 2025).

The subject of one series is HCoV 229E. As to conditions: for EC50: HCoV 229E in MRC5 cells, 3 days.
In the next series the test system is MRC5 cells. The series is described as follows: Cytotoxicity on MRC5 cells, CellTiter Glo, no virus infection. As to conditions: 3 days.
Series [1] concerns novel coronavirus (SARS-CoV-2). As to conditions: for FAM Ct value: 48 hours; for EC50 / Antiviral effective concentration on in vitro cell model (significant antiviral effect): Vero cell model.
A further series concerns Vero cells. In words: CCK-8 cell proliferation-toxicity assay on Vero cells. As to conditions: for A450 nm value: 48 hours, replicate wells.

Structures are written as SMILES. “And” between values parts separate entries of the source, which are not always exact repeats. Equal entries are not always repeated. Where two headings read alike, the source gives them in different places.

As a reminder, the EC50 is the midpoint of the concentration-response curve. By CC50 is commonly meant the concentration giving 50% cytotoxicity. Read a low CC50 as harm at low concentration. Take `O=[As]c1ccc(NC(=O)C2CCC2)cc1` (stereo not shown): the EC50 was more than 200 nM with HCoV 229E (the first test (first round)) and more than 40000 nM in the series on HCoV 229E (the second test (second round)). In addition, the CC50 in the series with MRC5 cells (the first test (first round)) is more than 800 nM; with MRC5 cells (the second test (second round)), 7640 nM.

As to `O=[As]c1ccccc1` (stereo not shown), the “FAM Ct value” in series [1] (first round, 1.56 nM, replicate wells, listed as phenylarsine oxide) is 19.02 and 18.28; in series [1] (first round, 3.12 nM, replicate wells, listed as phenylarsine oxide) it was 18.32 and 18.34; in series [1] (first round, 6.25 nM, replicate wells, listed as phenylarsine oxide) it was 18.59 and 18.37; in series [1] (first round, 12.5 nM, replicate wells, listed as phenylarsine oxide), 18.57 and 18.75; in series [1] (first round, 25 nM, replicate wells, listed as phenylarsine oxide) it was 20.35 and 20.02; in series [1] (first round, 50 nM, replicate wells, listed as phenylarsine oxide) it was 22.91 and 22.88. Besides, the “FAM Ct value” in series [1] (first round, 100 nM, replicate wells, larger Ct = less virus, listed as Phenylarsine oxide) was 26.4 and 28.32; in series [1] (first round, 200 nM), “Cytotoxicity”; in series [1] (second round, 6.25 nM, replicate wells, listed as Phenylarsine oxide) it was 14.79 and 14.96; in series [1] (second round, 25 nM, replicate wells, listed as Phenylarsine oxide), 15.94 and 16.51; in series [1] (second round, 50 nM, replicate wells, listed as Phenylarsine oxide), 17.19; in series [1] (second round, 100 nM, replicate wells, listed as Phenylarsine oxide) it was 20.31 and 19.24. In addition, the “FAM Ct value” in series [1] (second round, 200 nM, replicate wells, listed as Phenylarsine oxide) was 27.51 and 29.48; in series [1] (second round, 400 nM, replicate wells, listed as Phenylarsine oxide), 26.64 and 27.19; in series [1] (second round, 800 nM, replicate wells, listed as Phenylarsine oxide), 31.52 and 28.87. Also, the EC50 in series [1] (first round) stood at 20 nM; in series [1] (read-out: EC50 for inhibiting the novel coronavirus, second round) it was 19.2 nM; in the series on HCoV 229E (the first test (first round)), 55.4 nM; in the series on HCoV 229E (the second test (second round)), 37 nM. Also, the “Antiviral effective concentration on in vitro cell model (significant antiviral effect)” value in series [1] (first round, listed as Phenylarsine oxide) is “concentration of 20-100 nM”; in series [1] (first round, listed as phenylarsine oxide), 20 to 100 nM. In addition, the “SI (CC50/EC50)” value came to 4.64 in the series on HCoV 229E (the first test) and 1.86 in the series on HCoV 229E (the second test). In addition, the A450 nm value in the series with Vero cells (first round, 1.56 nM, listed as phenylarsine oxide) was 1.77 and 1.94; in the series with Vero cells (first round, 3.12 nM, listed as phenylarsine oxide), 1.75 and 2.06; in the series on Vero cells (first round, 6.25 nM, listed as phenylarsine oxide), 1.79 and 1.86; in the series on Vero cells (first round, 12.5 nM, listed as phenylarsine oxide) it was 1.75 and 1.95; with Vero cells (first round, 25 nM, listed as phenylarsine oxide) it was 1.80 and 1.95; in the series with Vero cells (first round, 50 nM, listed as phenylarsine oxide), 1.90 and 1.98. Also, the A450 nm value with Vero cells (first round, 100 nM, listed as phenylarsine oxide) is 1.71 and 1.86; in the series on Vero cells (first round, 200 nM, listed as phenylarsine oxide) it was 1.00 and 0.68. Also, the Cell viability % in the series with Vero cells (first round, 200 nM) is recorded as 50%; in the series with Vero cells (first round, 100 to 1.56 nM (text: below 100 nM), listed as Phenylarsine oxide), “greater than 90%”; in the series with Vero cells (first round, 100 to 1.56 nM (text: below 100 nM), listed as phenylarsine oxide) it was “cell viability greater than 90%”. The same compound gave a cell death with Vero cells (first round, 200 nM and above) of 50%. Further, the CC50 is more than 200 nM in the series with Vero cells (first round, Vero cells); 380 nM in the series on Vero cells (second round, Vero cells); 68.9 nM in the series with MRC5 cells (the second test (second round)). In addition, the cell viability entry in the series on Vero cells (second round, 100 nM and below) is given as “greater than 90%”. Also, the cell death rate in the series with Vero cells (second round, 400 nM and above) is listed as not below 50%. Besides, the CC10 in the series on Vero cells (second round, Vero cells) is recorded as 100 nM.

Consider `CC(C)CC(=O)Nc1ccc([As]=O)cc1` (stereo not shown), for which the figures for the EC50 with HCoV 229E (the first test (first round)) and in the series on HCoV 229E (the second test (second round)) were more than 200 nM and more than 40000 nM, respectively. Besides, the 50% cytotoxic concentration (CC50) in the series with MRC5 cells (the first test (first round)) is more than 800 nM; in the series with MRC5 cells (the second test (second round)), 6240 nM.
